Data taken from US9422335B2, “Modified toll-like receptor 2 (TLR2) ligands as inhibitors of neutrophil recruitment” (priority 2011, dated 2016).

Test system: neutrophils (GFPhi cells)
Assay: Neutrophil whole blood and lymph node counts
Type: in vivo, LysM-eGFP mice

Pam3CSK4
neutrophil numbers in blood or lymph nodes (local administration, 4.5 hr): does not cause any changes in neutrophil numbers | circulating blood neutrophils (systemic administration, 16 hr): increased numbers of circulating blood neutrophils | neutrophils in the lymph nodes (systemic administration, 16 hr): increased, albeit low, numbers of neutrophils in the lymph nodes
